Among the data in PubChem BioAssay AID1964107 (National Center for Advancing Translational Sciences (NCATS), 2024) are activity change, negative = inhibition values, retold here.

Only a part is listed here, and it is no random draw. Records with an inconclusive call do not appear. Calls of active or inactive are those of the source. The call rests on the fitted dose curve.
On the % scale 0 is the no-effect control and ±100 the full control effect.

The target of this assay is Polyprotein P1234 (Chikungunya virus (strain S27-African prototype)) (UniProt Q8JUX6). Description: Primary qHTS for inhibitors of NSP2Pro chikungunya virus (CHIKV). Further: nearly all actives have a fitted effect of over 60% in size. Particulars: FRET peptide cleavage, fluorescence 1 h; at 24.9 µM (top of the series). (Quantitative high-throughput screening tests each substance at several concentrations.)
With `O=C(NCC1(N2CCOCC2)CCCCC1)c1ccccc1[N+](=O)[O-]`, the activity change, negative = inhibition is inactive: -12.6%.

Turning to `CC(=O)N1CCc2ccc(N(C(=O)/C=C/c3cccc(C#N)c3)C3CCN(CCC4CCCC4)CC3)cc21`, the activity change, negative = inhibition is inactive: -7.44%. `CC(C)(C)c1ccc(C(=O)NCC2(N3CCOCC3)CCCCC2)cc1`: the activity change, negative = inhibition is inactive: 12%. Regarding `Cc1ccccc1C(=O)NCC1(N(C)C)CCCCC1`, the activity change, negative = inhibition was inactive: 50.2%.
